A mixed list of measured activities; the numbers were collected in NIAID ChemDB.

Common to all: enzyme or target tests; species: HIV-1; protein: Integrase; measure: IC50

a–b is a range or a potency band.

SMILES | strain or isolate | read by | mutations | conditions | result
N#C/C(=C\c1ccc(O)c(O)c1)C(=O)NCCCc1ccccc1 | - | 3′ processing / substrate cleavage | - | - | 10–100 µM
O=C(O)[C@H](Cc1ccccc1)NC(=O)C1(c2ccc(F)cc2)CCN(Cc2ccc3ccccc3c2)CC1 | NL4-3 | strand transfer / fluorescence | - | pseudotyped | 125 µM
O=C1C(=Cc2ccc(Cl)c(Cl)c2)CCCC1=Cc1ccc(Cl)c(Cl)c1 | - | 3′ processing | - | - | >100 µM
O=S(=O)(c1ccc(Cl)c(Cl)c1)c1ccc(Cl)c(Cl)c1 | - | strand transfer | - | - | >100 µM
C=C(CC[C@@H](C)[C@H]1CC=C2C3=C([C@@H](O)[C@H](OC(C)=O)[C@@]21C)[C@@]1(C)C[C@@H](O)[C@H](O)[C@@](C)(CO)[C@@H]1CC3)C(C)C | - | absorbance | - | - | >100 µM
Cc1ccc(C(=O)Nc2ccc3c(c2)c(C(C(=O)O)C(=O)O)cn3S(=O)(=O)c2ccc(C)cc2)cc1 | - | strand transfer / fluorescence | - | - | >25 µM
O=CNc1ccc(S(=O)(=O)c2ccc(NC=O)cc2)cc1 | - | strand transfer | - | - | >100 µM
COc1cc(/C=C/c2ccc(OC)c(OC)c2)oc(=O)c1 | - | absorbance | - | - | >100 µM
CC(O)/C=C/c1ccc2c(c1)c(C(=O)/C=C1\OC(C)(C)OC1=O)cn2Cc1ccc(F)cc1 | - | strand transfer / fluorescence | Y143R | - | 15.4 µM
O=c1c(O)c(-c2cc(O)c(O)c(O)c2)oc2cc(O)ccc12 | - | substrate cleavage | - | - | 5.9 µM
COc1cc(-c2ccc(O)cc2)c(OC)c(O)c1-c1ccc(O)cc1 | - | absorbance | - | - | 17.7 µM
Cc1ccccc1-c1cccc2c(-c3ccc4c(c3)OCCO4)c(C(OC(C)(C)C)C(=O)O)c(C)nc12 | - | strand transfer / fluorescence | - | - | 0.09 µM
C[C@@H]1CCO[C@H]2Cn3cc(C(=O)NCc4ccc(F)cc4F)c(=O)c(O)c3CN12 | - | - | G140S/Q148H | - | 0.18 µM
O=C(/C=C/c1ccc(O)c(O)c1/C=C/c1ccc(O)c(O)c1)O[C@H](Cc1ccc(O)c(O)c1)C(=O)O | - | ELISA | - | - | 13.69 µg/mL
C[C@@H]1[C@@H](O)[C@H](C)C[C@@H]2C=C[C@H](C)[C@H](/C=C/C=C/C(=O)O)[C@@H]12 | - | absorbance | - | - | 10 µM
Cc1cc(C)cc(Cn2cc(C(=O)CC(O)C(=O)O)c3c(O)cccc32)c1 | - | AlphaScreen | - | - | 3.5 µM
C[C@@H]1CC[C@@]23COC(=O)C2=CCCC3[C@@]1(C)CCC1=CCOC1=O | - | strand transfer / absorbance | - | - | 39.7 µM
COC(=O)C(=O)CC(=O)c1cccn1Cc1ccc(F)cc1 | - | binding | - | - | 1.12 µM
CCOC(=O)[C@@H](Cc1ccc(O)c(O)c1)OC(=O)/C=C/c1ccc(O)c(O)c1/C=C/c1ccc(O)c(O)c1 | - | ELISA | - | - | 14.54 µg/mL
C=C1C2[C@@H](O)C3=C(C)C(=O)OC3([C@@]34C[C@]5(C)C(C(=C)[C@H]6C[C@H]65)[C@@H](O)C3=C(C)C(=O)O4)C[C@@]2(C)[C@@H]2C[C@H]12 | - | - | - | - | >100 µM
O=C1O/C(=C(/C(=O)O)c2ccc(O)cc2)C(O)=C1c1ccc(O)c(O)c1 | - | absorbance | - | - | 1.1 µM
O=C(O)[C@H](CCCC(F)(F)F)NC(=O)C1(c2ccc3ccccc3c2)CCN(Cc2ccccc2)CC1 | NL4-3 | strand transfer / fluorescence | - | pseudotyped | 337.8 µM
COC(=O)CC[C@]1(C)C2CCC=C(C(=O)O)[C@]2(C)CC[C@H]1C | - | strand transfer / absorbance | - | - | 12.35 µM
CC1(C)OC(=O)/C(=C/C(=O)c2cn(Cc3cc(F)ccc3F)c3ccc(Br)cc23)O1 | - | strand transfer / fluorescence | Y143R | - | 14.5 µM
N#C/C(=C\c1ccc(O)c(O)c1)C(=O)NCCCCCCCCNC(=O)/C(C#N)=C/c1ccc(O)c(O)c1 | - | 3′ processing / substrate cleavage | - | - | 5–10 µM
CCCCOC(=O)C(=O)CC(=O)c1cccn1Cc1ccc(F)cc1 | - | binding | - | - | 0.295 µM
O=C(O)[C@H](Cc1ccccc1)NC(=O)C1(c2ccc3ccccc3c2)CCN(Cc2ccc3ccccc3c2)CC1 | NL4-3 | strand transfer / fluorescence | - | pseudotyped | >500 µM
COc1cc(C2CNCc3cc(OC)c(O)cc32)ccc1O | HXB2 | strand transfer / radiometric | - | - | >35 µM
O=C(/C=C/c1ccc(O)c(O)c1)OCCc1ccccc1 | - | 3′ processing / substrate cleavage | - | - | 220 µM
C[C@@H]1CC[C@]23COC(=O)C2=CCCC3[C@@]1(C)C[C@@H](O)C1=CC(=O)OC1 | - | strand transfer / absorbance | - | - | 33.36 µM
COc1ccc2[nH]c3ccc4cc[n+](CCN5CCC(C6CCN(CC[n+]7ccc8ccc9[nH]c%10ccc(OC)cc%10c9c8c7)CC6)CC5)cc4c3c2c1 | - | 3′ processing / substrate cleavage | - | - | 0.9 µM
CCOC(=O)C(C(=O)OCC)c1cn(S(=O)(=O)c2ccc(C)cc2)c2ccc(NC(=O)c3cccc([N+](=O)[O-])c3)cc12 | - | strand transfer / fluorescence | - | - | 22.5 µM
O=c1cc(O)cc(/C=C/c2ccc(O)c(O)c2)o1 | - | absorbance | - | - | 2 µM
CN1CCc2cc(O)c(O)cc2C(c2ccc(O)c(O)c2)C1 | HXB2 | strand transfer / radiometric | - | - | 1.7 µM
N#C/C(=C\c1ccc(O)c(O)c1)C(=O)NCc1cccc(CNC(=O)/C(C#N)=C/c2ccc(O)c(O)c2)c1 | - | 3′ processing / substrate cleavage | - | - | 10–100 µM
COc1c(O)ccc2c1-c1c3c(cc4c1[C@H](C2)NCC4)OCO3 | - | - | - | - | >100 µM
Cc1cnc(NCCCN(C)C)c2c1[nH]c1ccc3cc(O)ccc3c12 | - | 3′ processing / substrate cleavage | - | - | 33.4 µM
O=C1/C(=C/c2ccc(O)c([N+](=O)[O-])c2)CN(Cc2ccccc2)C/C1=C\c1ccc(O)c([N+](=O)[O-])c1 | - | 3′ processing | - | - | >100 µM
COc1cccc2c1C(=O)c1c(O)c3c(c(O)c1C2=O)C[C@@](O)(C(=O)CO)C[C@@H]3O | - | 3′ processing / substrate cleavage | - | - | >100 µM
O=C(/C=C/c1ccc(O)c(O)c1/C=C/c1ccc(O)c(O)c1)OC(Cc1ccc(O)c(O)c1)C(=O)O | - | radiometric / fluorescence | - | - | 0.4 µg/mL
COc1cccc2c1C(=N)c1c(O)c3c(c(O)c1C2=O)C[C@@](O)(C(C)=O)C[C@@H]3O[C@H]1C[C@H](N)[C@H](O)[C@H](C)O1 | - | 3′ processing / substrate cleavage | - | - | 20.4 µM
N#C/C=C1/c2cc(S)cc([N+](=O)[O-])c2-c2c1cc(S(=O)(=O)NCc1ccccc1)cc2[N+](=O)[O-] | - | ELISA / strand transfer | - | - | 0.14 µM
O=C1OC[C@H]2[C@H](c3ccc(O)c(O)c3)c3cc(O)c(O)cc3C[C@H]12 | HXB2 | strand transfer / gel | - | - | 0.5 µM
C[C@@H]1O[C@@H](Oc2c(-c3cc(O)c(O)c(O)c3)oc3cc(O)cc(O)c3c2=O)[C@H](O)[C@H](O)[C@H]1O | - | substrate cleavage | - | - | 39.6 µM
Cc1[nH]cnc1C(=O)NNC1=Nc2ccc(Br)cc2C(c2ccccc2Cl)=NC1 | - | substrate cleavage | - | - | 2 µM
COc1cccc2c1C(=O)c1c(O)c3c(c(O)c1C2=O)C[C@@](O)(C(=O)CO)C[C@@H]3O[C@H]1C[C@H](O)[C@H](O)[C@H](C)O1 | - | 3′ processing / substrate cleavage | - | - | 14.4 µM
C=C(C)[C@@H]1CCC2[C@]3(CC[C@]4(C)[C@@H]([C@H](C)CC/C=C(/C)C(=O)O)CC[C@@]24C)C[C@]13CCC(=O)O | - | binding / fluorescence | - | - | 2.8 µM
COC(=O)C1C(=O)N(O)C(=O)c2ccccc21 | - | ELISA | - | - | 4.77 µM
C=C(CC[C@@H](C)[C@H]1CC=C2C3=C([C@@H](O)[C@H](OC(C)=O)[C@@]21C)[C@@]1(C)C[C@@H](O)[C@H](O)C(C)(C)[C@@H]1CC3)C(C)C | - | absorbance | - | - | 82 µM
O=C(O)C(C(=O)O)c1c[nH]c2ccc([N+](=O)[O-])cc12 | - | strand transfer / fluorescence | G140S | - | 20.7 µM
O=C1/C(=C/c2ccc([N+](=O)[O-])c(O)c2)CNC/C1=C\c1ccc([N+](=O)[O-])c(O)c1 | - | 3′ processing | - | - | >100 µM
O=C(O)C(=O)/C=C(\O)c1cn(Cc2cc(F)ccc2F)c2ccc(Br)cc12 | - | strand transfer / fluorescence | Y143R | - | 15.6 µM
O=C(/C=C/c1ccc(O)c2c1[C@H](C(=O)O)[C@@H](c1ccc(O)c(O)c1)O2)O[C@H](Cc1ccc(O)c(O)c1)C(=O)O | - | ELISA | - | - | 17.87 µg/mL
O=C(O)c1cc(-c2ccc(F)cc2F)ccc1O | - | AlphaScreen | - | - | 17.71 µM
C=C1[C@H]2C[C@H]2[C@]2(C)C[C@@H]3OC(=O)C(C)=C3[C@H](OC(C)=O)[C@@H]12 | - | - | - | - | >100 µM
O=C(CNC(=O)c1cnc2ccccc2n1)NCCCNC(=O)CNC(=O)c1cnc2ccccc2n1 | - | 3′ processing / substrate cleavage | - | - | 200 µM
O=C(O)c1ccc(NCc2cc(O)ccc2O)cc1 | - | 3′ processing / substrate cleavage | - | - | 10–100 µM
O=CCc1c(-c2ccccc2)c2cc(Cl)ccc2[nH]c1=O | - | AlphaScreen | - | - | 11.65 µM
CCOC(=O)C(C(=O)OCC)c1cn(S(=O)(=O)c2ccc(C)cc2)c2ccc(NC(=O)c3ccc(OC)cc3)cc12 | - | strand transfer / fluorescence | Y143R | - | >25 µM
C[C@@](Cc1ccc(O)c(O)c1)(NN)C(=O)O | - | AlphaScreen | - | - | 6.54 µM
CC[C@@]1(O)C(=O)OCc2c1cc1n(c2=O)Cc2cc3cc4c(cc3nc2-1)OCO4 | - | 3′ processing / substrate cleavage | - | - | >100 µM
C=CC(C)(C)O[C@H](C)[C@@H]1NC(=O)[C@H]2CSC(=N2)[C@@H](Cc2ccccc2)NC(=O)[C@@H]2CCCN2C(=O)[C@H](CO)NC(=O)C(CC(C)C)NC1=O | - | absorbance | - | - | >100 µg/mL
CCOc1nc2cccc(C(=O)O)c2n1Cc1ccc(-c2ccccc2-c2nn[nH]n2)cc1 | - | AlphaScreen | - | - | 11.36 µM

ICn is the concentration giving n% inhibition. Neighbouring rows are from separate reports. Blank or dashed fields: not listed here.